Laboratory results taken from paper PMC4942610, “Exploration of acetanilide derivatives of 1-(ω-phenoxyalkyl)uracils as novel inhibitors of Hepatitis C Virus replication” (Scientific Reports, 2016).

System: HCVcc gt 2a strain JFH-1
Test: HCVcc JFH-1 infection of Huh7-J20 reporter cells, second protocol (full life cycle), SEAP dose-response
Assay type: cell-based, Hepatitis C Virus
Conditions: for SI: ratio of CC50 on IC50, Huh7-J20, JFH-1; for increase of SI compared to Z436: from SI of Table 1

O=C(Cn1c(=O)ccn(CCCCOc2ccc(Br)cc2)c1=O)Nc1ccc(Oc2ccccc2)cc1 [Z397]
SI: 20.715

O=C(Cn1c(=O)ccn(CCCCCOc2ccc(Br)cc2)c1=O)Nc1ccc(Oc2ccc(Cl)cc2)cc1 [Z385]
increase of anti-HCV activity compared to Z263 (from IC50 of Table 1): 6 fold
SI: > 100 and 101.145

O=C(Cn1c(=O)ccn(CCCCCCCCOc2ccc(Br)cc2)c1=O)Nc1ccc(Oc2ccccc2)cc1 [Z401]
SI: > 200 and 244 and 244.238

O=C(Cn1c(=O)ccn(CCCCCOc2ccc(Br)cc2)c1=O)Nc1ccc(Cc2ccccc2)cc1 [Z387]
SI: > 100 and 185.482

O=C(Cn1c(=O)ccn(CCCCCOc2ccc(Br)cc2)c1=O)Nc1ccc(Oc2ccc(F)cc2)cc1 [Z414]
increase of anti-HCV activity compared to Z263 (from IC50 of Table 1): ~5 fold
SI: 48.612

O=C(Cn1c(=O)ccn(CCCCCOc2ccc(Br)cc2)c1=O)Nc1ccc(Oc2ccccc2)cc1 [Z263]
increase of SI compared to Z436: 5 fold
SI: 18.174

O=C(Cn1c(=O)ccn(CCCCCCc2ccccc2)c1=O)Nc1ccc(Oc2ccccc2)cc1 [Z437]
SI: 5.029

O=C(Cn1c(=O)ccn(CCCCCOc2cccc(Br)c2)c1=O)Nc1ccc(Oc2ccccc2)cc1 [Z421]
increase of inhibitory activity compared to Z436 (from IC50 of Table 1): 3 times
increase of SI compared to Z436: 10 fold
SI: 38.548

O=C(Cn1c(=O)ccn(CCCCCOc2ccc(-c3ccccc3)cc2)c1=O)Nc1ccc(Oc2ccccc2)cc1 [Z438]
SI: 5.534

Cc1ccc(Oc2ccc(NC(=O)Cn3c(=O)ccn(CCCCCOc4ccc(Br)cc4)c3=O)cc2)cc1 [Z413]
increase of anti-HCV activity compared to Z263 (from IC50 of Table 1): 10 fold
SI: 87.166

O=C(Cn1c(=O)ccn(Cc2ccccc2)c1=O)Nc1ccc(Oc2ccccc2)cc1 [Z176]
SI: 13.174

CN(C(=O)Cn1c(=O)ccn(CCCCCOc2ccc(Br)cc2)c1=O)c1ccc(Oc2ccccc2)cc1 [Z431]
SI: 5.348

O=C(Cn1c(=O)ccn(CCCCCCOc2ccc(Br)cc2)c1=O)Nc1ccc(Oc2ccccc2)cc1 [Z400]
SI: > 200 and 273 and 273.569

Cc1cn(CCCCCOc2ccc(Br)cc2)c(=O)n(CC(=O)Nc2ccc(Oc3ccccc3)cc2)c1=O [Z376]
SI: 31.761

O=C(Cn1c(=O)ccn(CCCCCOc2ccccc2)c1=O)Nc1ccc(Oc2ccccc2)cc1 [Z436]
SI: 3.595

N#Cc1ccc(OCCCCCn2ccc(=O)n(CC(=O)Nc3ccc(Oc4ccccc4)cc3)c2=O)cc1 [Z434]
SI: 5.661

O=C(Cn1c(=O)ccn(CCCCCOc2ccc(Br)cc2)c1=O)Nc1ccc(OCc2ccccc2)cc1 [Z377]
SI: 6.196

O=C(Cn1c(=O)ccn(CCCCOCc2ccc(Br)cc2)c1=O)Nc1ccc(Oc2ccccc2)cc1 [Z432]
SI: 14.942

O=C(Cn1c(=O)ccn(CCCCCOc2ccc(Br)cc2)c1=O)Nc1ccc(C(=O)c2ccccc2)cc1 [Z430]
SI: 12.173

O=C(Cn1c(=O)c(I)cn(CCCCCOc2ccc(Br)cc2)c1=O)Nc1ccc(Oc2ccccc2)cc1 [Z439]
SI: 7.977

Several values for one entry are separate records, joined by “and”; a condition that tells them apart may be missing. Identical values can stand only once.
